Experimental data as given in patent US20020094524A1, “Compositions and methods for inhibiting HIV infection” (priority 2000, published 2002).

Sequences of proteins named here, by UniProt entry; tags and fusion partners are left off.
UniProt P25103, whole entry: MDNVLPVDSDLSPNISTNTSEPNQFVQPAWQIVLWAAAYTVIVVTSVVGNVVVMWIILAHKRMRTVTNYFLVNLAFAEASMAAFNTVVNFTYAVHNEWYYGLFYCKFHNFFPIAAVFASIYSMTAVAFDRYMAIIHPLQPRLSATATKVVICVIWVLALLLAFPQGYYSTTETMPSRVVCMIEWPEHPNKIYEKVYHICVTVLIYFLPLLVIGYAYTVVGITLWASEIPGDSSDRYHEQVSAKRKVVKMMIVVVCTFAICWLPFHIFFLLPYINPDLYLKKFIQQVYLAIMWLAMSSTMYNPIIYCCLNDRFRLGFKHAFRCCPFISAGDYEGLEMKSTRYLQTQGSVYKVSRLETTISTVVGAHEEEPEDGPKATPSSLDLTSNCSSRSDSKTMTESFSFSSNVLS

Target: Neurokinin-1 receptor (NK-1R) (human) (UniProt P25103)
Assay: cell-based or functional assay

## Substance P (SP) (from UniProt P20366 58-68) (peptide)
  HIV RT activity in MDM, increase at SP 10^-6M: 58%
  HIV RT activity in MDM, increase at SP 10^-8M: 40%
  HIV RT activity in MDM, increase at SP 10^-10M: 14%
